The source of these data is patent US20240109955A1.

Common to all, as to assay: cell-based or functional assay
For assay [1], the target named is SARS-CoV-2 spike protein, Omicron sublineage BQ.1.1 (SARS-CoV-2), P0DTC2.
Assay [2] has as its target SARS-CoV-2 spike protein, Omicron sublineage BF.7 (SARS-CoV-2), P0DTC2.
Assay [3] has as its target SARS-CoV-2 spike protein, Omicron sublineage BA.4/5 (SARS-CoV-2), P0DTC2.

B1: MX1089 (protein)
chain 1: QTVVTQEPSFSVSPGGTVTLTCGLSSGSVSTAYFPSWYQQTPGQAPRTLIYGTNTRSSGVPDRFSGSILGNKAALTITGAQADDESDYYCVLYMGRGIVVFGGGTKLTVLGGSSGEIVMTQSPAILSVSPGERATLSCRASQSVAINLAWYQQKPGQAPRLLIYAASSRATGIPGRFSGSGSETNFTLTISSLQSGDFAVYYCQQYITWPPSYTFGQGTKLEIKGGGGSGGSGSGGGGSASGSGEVQLVESGGALIQPGGSLRLSCAASGIIVSANYMSWVRQAPGKGLEWVSVIYSGGSTFYADSVKGRFTISRDNSKNTLYLEMNSLRAEDTAVYYCARDAPILGVSDWGQGTLVTVSSGGSSGQVQLVESGGGVVQPGRSLRLSCAASGFTLSSYGMHWVRQAPGKGLEWVAVISYDGSNKYYVDSVKGRFTISRDNSKNTLYLQMNSLRAEDTAVYYCRWAYWELLPDYYYGMDVWGQGTTVTVSSASGGSGDKTHTCPPCPAPELLGGPSVFLFPPKPKDTLMISRTPEVTCVVVDVSHEDPEVKFNWYVDGVEVHNAKTKPREEQYNSYVVSVLTVLHQDWLNGKEYKCKVSNKALPAPIEKTISKAKGQPREPQVYTLPPCRDELTKNQVSLWCLVKGFYPSDIAVEWESNGQPENNYKTTPPVLDSDGSFFKKLTVDKSRWQQGNVFSCSVLHEALHSHYTQKSLSLSPG
chain 2: DTVMTQSPLSLPVTPGEPASISCRSSQSLLNSNGYNYLDWYVQKPGQSPQLLIYLGSNRASGVPDRFSGSGSGTDFTLKISRVEAEDVGVYYCMQPLQTPLFTFGPGTKVEIKGGSSGEIVLTQSPGTLSLSPGERATLSCRASQSVSSSYLAWYQQKPGQAPRLLIYSASSRATGIPDRFSGSGSGTDFTLTISRLEPEDFAVYFCQQYVGLTGWTFGQGTKVEIKGGGGSGGSGSGGGGSASGSGQMQLVQSGPEVKKPGTSVKVSCKASGFTFTSSAVQWVRQRQRLEWIGWIVVGSGNTNYAQKFQERVTITRDMSTSTAYMELSSLRSEDTAVYYCAAPNCSNVVCYDGFDIWGQGTMVTVSSGGSSGQVTLRESGPALVKPTQTLTLTCTFSGFSLSTRGVCVSWIRQPPGKALEWLAFIDWDDDKYYNTSLKTRLTISKDTSKNQVVLTMTNVHPVDTATYYCARISSHHGSSWCTTFDYWGQGALVTVSAASGGSGDKTHTCPPCPAPELLGGPSVFLFPPKPKDTLMISRTPEVTCVVVDVSHEDPEVKFNWYVDGVEVHNAKTKPREEQYNSYVVSVLTVLHQDWLNGKEYKCKVSNKALPAPIEKTISKAKGQPREPQVCTLPPSRDELTKNQVSLSCAVKGFYPSDIAVEWESNGQPENNYKTTPPVLDSDGSFFLVSKLTVDKSRWQQGNVFSCSVLHEALHSHYTQKSLSLSPG
Consider B1, for which the figures for the IC50 (pseudovirus neutralization) in assay [1], in assay [2] and in assay [3] were 1.99 nM, 22.6 nM and 2.32 nM, respectively. Further, the IC80 (pseudovirus neutralization) in assay [1] was 7.9 nM; in assay [2], 64.3 nM; in assay [3] it was 3.5 nM.

B2: E12 (antibody, V domains shown)
VH: EVQLVESGGGLIQPGGSLRLSCAASGVIVSYNYMNWVRQAPGKGLEWVSVIYSGGSTFYADSVRGRFTISRDNSKNTLYLQMNSLRAEDTAVYYCARDLGPAGAFDIWGLGTMVTVSS
VL: EIVLTQSPGTLSLSPGETATLSCRASQSFSSDLAWYQQKPGQAPRLLIYGASSRATGIPDRFSGSGSGTDFTLTISRLEPADFAVYYCQQYGSSPPVTFGGGTKVEIK
Consider B2, for which the IC50 (pseudovirus neutralization) in assay [1] amounted to 5.29 nM; in assay [2], 28.3 nM; in assay [3] it was 4.62 nM. Moreover, the IC80 (pseudovirus neutralization) in assay [1] amounted to 17.4 nM; in assay [2], 88.7 nM; in assay [3], 9.21 nM.

B3: B8 (antibody, V domains shown)
VH: EVQLVESGGALIQPGGSLRLSCAASGIIVSANYMSWVRQAPGKGLEWVSVIYSGGSTFYADSVKGRFTISRDNSKNTLYLEMNSLRAEDTAVYYCARDAPILGVSDWGQGTLVTVSS
VL: EIVMTQSPAILSVSPGERATLSCRASQSVAINLAWYQQKPGQAPRLLIYAASSRATGIPGRFSGSGSETNFTLTISSLQSGDFAVYYCQQYITWPPSYTFGQGTKLEIK
Take B3: the IC50 (pseudovirus neutralization) in assay [1] was 4.57 nM; in assay [2] it was 19.8 nM; in assay [3], 6.97 nM. Moreover, the IC80 (pseudovirus neutralization) is 21.7 nM in assay [1], 63 nM in assay [2] and 14.8 nM in assay [3].

B4: A23-58H/A23-58L93VGLTG (antibody, V domains shown)
VH: QMQLVQSGPEVKKPGTSVKVSCKASGFTFTSSAVQWVRQRQRLEWIGWIVVGSGNTNYAQKFQERVTITRDMSTSTAYMELSSLRSEDTAVYYCAAPNCSNVVCYDGFDIWGQGTMVTVSS
VL: EIVLTQSPGTLSLSPGERATLSCRASQSVSSSYLAWYQQKPGQAPRLLIYSASSRATGIPDRFSGSGSGTDFTLTISRLEPEDFAVYFCQQYVGLTGWTFGQGTKVEIK
Regarding B4, the IC50 (pseudovirus neutralization) came to 30.3 nM in assay [1], 97.5 nM in assay [2] and 5.2 nM in assay [3]. For the same molecule, the IC80 (pseudovirus neutralization) in assay [1] was determined as 1320 nM; in assay [2] it was 475 nM; in assay [3], 13.5 nM.

B5: E8 (antibody, V domains shown)
VH: QVTLRESGPALVKPTQTLTLTCTFSGFSLSTRGVCVSWIRQPPGKALEWLAFIDWDDDKYYNTSLKTRLTISKDTSKNQVVLTMTNVHPVDTATYYCARISSHHGSSWCTTFDYWGQGALVTVSA
VL: DTVMTQSPLSLPVTPGEPASISCRSSQSLLNSNGYNYLDWYVQKPGQSPQLLIYLGSNRASGVPDRFSGSGSGTDFTLKISRVEAEDVGVYYCMQPLQTPLFTFGPGTKVEIK
For the molecule B5, the IC50 (pseudovirus neutralization) in assay [1] stood at 496 nM; in assay [2], 15.6 nM; in assay [3] it was 0.13 nM. Further, the IC80 (pseudovirus neutralization) was 1800 nM in assay [1], 30.9 nM in assay [2] and 0.49 nM in assay [3].
